Anti-infective test results gathered from many reports (values: NIAID ChemDB through PubChem).

All rows: growth or infection tests; organism: Mycobacterium smegmatis

Neighbouring rows are from separate reports.

structure | measure | method | strain or isolate | changes | result
COc1c(N2C[C@@H]3CCCN[C@@H]3C2)c(F)cc2c(=O)c(C(=O)O)cn(C3CC3)c12 | MIC | resazurin | mc2155 |  | 0.1 µM
CC(C)N1CCN(c2c(F)cc3c(=O)c(C(=O)O)cn(C4CC4)c3c2F)CC1 | MIC99 |  | KD2012 (GYRA G89A) |  | 1.6 µg/mL
Cc1c(N2CC[C@H](n3cccc3)C2)c(F)cn2c(=O)c(C(=O)O)cc(C3CC3)c12 | MIC |  | ATCC114 |  | 0.78 µg/mL
O=C(O)C(Cc1ccc(I)cc1)Nc1nc(-c2ccc(Cl)c(Cl)c2)cs1 | MIC99 | broth dilution | ATCC 700084 |  | 12.5 µg/mL
CO[C@@H]1C[C@@H](C[C@H]2CC[C@H](C)[C@H]([C@@H](C)C(=O)O)O2)O[C@]2(O[C@](C)([C@H]3CC[C@@](C)([C@@H]4O[C@@H]([C@H]5O[C@@](O)(CO)[C@H](C)C[C@@H]5C)C[C@@H]4C)O3)C[C@H]2C)[C@@H]1C | MIC | resazurin | mc2155 |  | 2.5 µg/mL
COc1c(N2CC(C)NC(C)C2)c(F)cc2c(=O)c(C(=O)O)cn(C3CC3)c12 | MIC99 |  | KD1998 (GYRA D95N) |  | 0.93 µg/mL
Cc1c(N2CCC(CN)CC2)c(F)cn2c(=O)c(C(=O)O)cc(C3CC3)c12.Cl | MIC |  | ATCC114 |  | 0.2 µg/mL
O=C(O)c1cn(C2CC2)c2c(F)c(N3CCNCC3)c(F)cc2c1=O | MIC99 |  | KD2012 (GYRA G89A) |  | 0.42 µg/mL
CC[C@H](CO)NCCN[C@@H](CC)CO.Cl.Cl | MIC |  | ATCC 607 |  | 8 µg/mL
CO[C@H]1/C=C/O[C@@]2(C)Oc3c(C)c(O)c4c(O)c(c(/C=N/N5CCN(C)CC5)c(O)c4c3C2=O)NC(=O)/C(C)=C\C=C\[C@H](C)[C@H](O)[C@@H](C)[C@@H](O)[C@@H](C)[C@H](OC(C)=O)[C@@H]1C | MIC | resazurin | mc2155 |  | 31 µM
Cc1nc(-c2ccc(F)cc2)sc1-c1csc(-c2ccc(F)cc2)n1 | MIC | absorbance |  |  | 48.22 µM
CCn1cc(C(=O)O)c(=O)c2cc(F)c(N3CCNC(C)C3)c(F)c21 | MIC |  | mc2155 |  | 6.25 µM
CCC(CO)NCC(C)NC(CC)CO | MIC |  | ATCC 607 |  | 250 µg/mL
CN(/N=C/c1ccccc1O)c1ccc2ccccc2n1 | MIC |  | mc2155 |  | >100 µM
Cc1ccc(-c2nc(C)c(-c3csc(-c4ccccc4)n3)s2)cc1 | MIC | absorbance |  |  | 90.99 µM
Cl.Cl.OCC(CO)(CO)NCCNC(CO)(CO)CO | MIC |  | ATCC 607 |  | >250 µg/mL
CC[C@@H](C(=O)[C@@H](C)[C@@H](O)[C@H](C)[C@@H]1O[C@@H]([C@@H](CC)C(=O)O)CC[C@@H]1C)[C@H]1O[C@@]2(C=C[C@@H](O)[C@@]3(CC[C@@](C)([C@H]4CC[C@](O)(CC)[C@H](C)O4)O3)O2)[C@H](C)C[C@@H]1C | MIC | resazurin | mc2155 | G457A | 2.5 µg/mL
CCC(CO)N(C)CCN(C)C(CC)CO | MIC |  | ATCC 607 |  | >250 µg/mL
CC[C@@H](NC)[C@@H]1CCN(c2c(F)cn3c(=O)c(C(=O)O)cc(C4CC4)c3c2C)C1.Cl | MIC |  | ATCC114 |  | 0.2 µg/mL
CCN1CCN(c2c(F)cc3c(=O)c(C(=O)O)cn(C4CC4)c3c2F)CC1 | MIC99 |  | KD1990 (GYRA D95A) |  | 1.5 µg/mL
C=C(C)O[C@H]1C[C@@]2(C)[C@@H](C[C@@H](O)[C@H]3[C@@]4(C)CC[C@@H](O)[C@@H](C)[C@@H]4CC[C@@]32C)/C1=C(\CCC=C(C)C)C(=O)[O-] | MIC |  | mc2155 |  | >100 µM
COc1c(N2CCN(C(C)C)CC2)c(F)cc2c(=O)c(C(=O)O)cn(C3CC3)c12 | MIC99 |  | KD1991 (GYRA D95Y) |  | 2.4 µg/mL
CC[C@@H](CO)NCCN[C@@H](CC)CO | MIC | resazurin | mc2155 |  | 2 µM
CC(C)N1CCN(c2cc3c(cc2F)c(=O)c(C(=O)O)cn3C2CC2)CC1 | MIC99 |  | KD2008 (GYRA G89C) |  | 7.4 µg/mL
Cc1nc(-c2ccc(Cl)cc2)sc1-c1csc(-c2ccc(F)cc2)n1 | MIC | absorbance |  |  | 40.73 µM
O=C(O)c1c[nH]c2cc(OCc3ccccc3)ccc2c1=O | MIC |  | mc2155 |  | >100 µM
CC1CN(c2c(F)cc3c(=O)c(C(=O)O)cn(C4CC4)c3c2Br)CC(C)N1 | MIC99 |  | KD1163 (GRYA+) |  | 0.11 µg/mL
CN(C)[C@@H]1C(=O)C(C(N)=O)=C(O)[C@@]2(O)C(=O)C3=C(O)c4c(O)cccc4[C@@](C)(O)[C@H]3C[C@@H]12 | MIC |  | PSB51 LFR |  | 1 µg/mL
C=C(NC(=O)C(=C)NC(=O)c1csc(C2=NC3CC4(C2)NC(=O)C(C)NC(=O)C(=C)NC(=O)C(=C)NC(=O)C(C(C)C)NC2C=Cc5c(C(C)O)cc(nc5C2O)C(=O)OC(C)C(NC(=O)c2csc(n2)C(C(C)(O)C(C)O)NC(=O)C2CSC(=N2)/C(=C\C)NC(=O)C(C(C)O)NC(=O)c2csc4n2)c2nc3cs2)n1)C(N)=O | MIC |  | mc2155 |  | 1.56 µM
Cc1c(N2CCC(N3CCCCC3)CC2)c(F)cn2c(=O)c(C(=O)O)cc(C3CC3)c12 | MIC |  | ATCC114 |  | 0.78 µg/mL
Cc1nc(-c2ccc(Cl)cc2)sc1-c1csc(-c2ccc(Cl)cc2)n1 | MIC | absorbance |  |  | 74.86 µM
CCC(CO)N(CC)CCN(CC)C(CC)CO | MIC |  | ATCC 607 |  | 15 µg/mL
CCC1CN(c2cc3c(cc2F)c(=O)c(C(=O)O)cn3C2CC2)CCN1 | MIC99 |  | KD1990 (GYRA D95A) |  | 2.6 µg/mL
Cc1ccc(-c2nc(-c3sc(-c4ccccc4)nc3C)cs2)cc1 | MIC | absorbance |  |  | 91.15 µM
CC[C@H](CO)N1CCN([C@@H](CC)CO)CC1.Cl.Cl | MIC |  | ATCC 607 |  | >250 µg/mL
Ic1ccc2c(c1)N(c1ccccc1)c1cc(Nc3ccc4nc5ccc(I)cc5[n+](-c5ccccc5)c4c3)ccc1N2 | MIC |  | mc2155 |  | >100 µM
Cc1c(N2CC[C@H](NC(=O)[C@H](C)NC(=O)[C@H](C)N)C2)c(F)cn2c(=O)c(C(=O)O)cc(C3CC3)c12.Cl | MIC |  | ATCC114 |  | 1.56 µg/mL
Cc1c(N)nc([C@H](CC(N)=O)NC[C@H](N)C(N)=O)nc1C(=O)N[C@H](C(=O)N[C@H](C)[C@@H](O)[C@H](C)C(=O)N[C@H](C(=O)NCCc1nc(-c2nc(C(=O)NCCC[S+](C)C)cs2)cs1)[C@@H](C)O)C(O[C@@H]1O[C@@H](CO)[C@@H](O)[C@H](O)[C@@H]1O[C@H]1O[C@H](CO)[C@@H](O)[C@H](OC(N)=O)[C@@H]1O)c1cnc[nH]1 | MIC |  | mc2155 |  | 3.125 µM
Cc1nc(-c2ccc(F)cc2)sc1-c1csc(-c2ccccc2)n1 | MIC | absorbance |  |  | >100 µM
CC[n+]1c(-c2ccccc2)c2cc(N)ccc2c2ccc(N)cc21 | MIC |  | PMN1 LFR |  | 32 µg/mL
Cc1c(N2CCC[C@@H](N)C2)c(F)cn2c(=O)c(C(=O)O)cc(C3CC3)c12 | MIC |  | ATCC114 |  | 0.78 µg/mL
CCC1CN(c2c(F)cc3c(=O)c(C(=O)O)cn(C4CC4)c3c2OC)CCN1 | MIC99 |  | KD1163 (GRYA+) |  | 0.029 µg/mL
Cc1c(N2CC[C@@H]([C@H](N)CO)C2)c(F)cn2c(=O)c(C(=O)O)cc(C3CC3)c12 | MIC |  | ATCC114 |  | 0.1 µg/mL
Cc1nc(-c2ccccc2)sc1-c1csc(Cc2ccccc2)n1 | MIC | absorbance |  |  | >100 µM
C[C@H]1NCc2cc(-c3ccc4c(=O)c(C(=O)O)cn(C5CC5)c4c3OC(F)F)ccc21 | MIC |  | A24185 |  | 0.25 µg/mL
COCOC1CCN(c2c(F)cn3c(=O)c(C(=O)O)cc(C4CC4)c3c2C)CC1 | MIC |  | ATCC114 |  | 0.78 µg/mL

Repeating the first 2 entries:

| structure | measure | method | strain or isolate | changes | result |
|---|---|---|---|---|---|
| COc1c(N2C[C@@H]3CCCN[C@@H]3C2)c(F)cc2c(=O)c(C(=O)O)cn(C3CC3)c12 | MIC | resazurin | mc2155 |  | 0.1 µM |
| CC(C)N1CCN(c2c(F)cc3c(=O)c(C(=O)O)cn(C4CC4)c3c2F)CC1 | MIC99 |  | KD2012 (GYRA G89A) |  | 1.6 µg/mL |

A number after MIC or MFC names an inhibition level or a share of isolates. An empty or dashed field is not shown.